Fold change is the IC50 on the isolate divided by the IC50 on a reference virus; 1 = unchanged, higher = more resistant. Changes are given against the subtype B consensus. No active / inactive call. The values were gathered from many studies (numbered anew) with different assays, which the source does not name. Most viruses are clinical isolates; some are laboratory strains or clones with known resistance changes. Isolates with mixed residues are left out; stretches that were not sequenced show no change. Round top values that many isolates share are read here as limits; other very high values and 0.1 may be limits too. The protease changes I3V and N37S, insertions and deletions cannot be read from the source.
Assays:
Test in all cases: fold change of IC50 against reference virus; higher = more resistant; Cell-culture drug susceptibility tests of virus bearing the protease of each isolate, gathered from many studies.
[1] = compound: Cc1c(O)cccc1C(=O)N[C@@H](CSc1ccccc1)[C@H](O)CN1C[C@H]2CCCC[C@H]2C[C@H]1C(=O)NC(C)(C)C [nelfinavir]
[2] = compound: CC(C)(C)NC(=O)[C@@H]1C[C@@H]2CCCC[C@@H]2CN1C[C@@H](O)[C@H](Cc1ccccc1)NC(=O)[C@H](CC(N)=O)NC(=O)c1ccc2ccccc2n1 [saquinavir]
[3] = compound: CC(C)(C)NC(=O)[C@@H]1CN(Cc2cccnc2)CCN1C[C@@H](O)C[C@@H](Cc1ccccc1)C(=O)N[C@H]1c2ccccc2C[C@H]1O [indinavir]
[4] = compound: Cc1cccc(C)c1OCC(=O)N[C@@H](Cc1ccccc1)[C@@H](O)C[C@H](Cc1ccccc1)NC(=O)[C@H](C(C)C)N1CCCNC1=O [lopinavir]
[5] = compound: CC(C)c1nc(CN(C)C(=O)N[C@H](C(=O)N[C@@H](Cc2ccccc2)C[C@H](O)[C@H](Cc2ccccc2)NC(=O)OCc2cncs2)C(C)C)cs1 [ritonavir]
[6] = compound: COC(=O)N[C@H](C(=O)N[C@@H](Cc1ccccc1)[C@@H](O)CN(Cc1ccc(-c2ccccn2)cc1)NC(=O)[C@@H](NC(=O)OC)C(C)(C)C)C(C)(C)C [atazanavir]

## HIV-1 isolate 137 (protease changes: L10F M46I I54V L63P A71V V77I V82A, study 15)
[1]
  fold change of IC50 against reference virus: 9.4
[2]
  fold change of IC50 against reference virus: 1.4
[3]
  fold change of IC50 against reference virus: 37
[4]
  fold change of IC50 against reference virus: 210
[5]
  fold change of IC50 against reference virus: 25
[6]
  fold change of IC50 against reference virus: 0.8

## HIV-1 isolate 382 (protease changes: L10V I13V I15V K20R L24F L33F E35D M36I N37E I54V I62V L63P K70E A71V V82A L90M I93L, study 15)
[1]
  fold change of IC50 against reference virus: 81
[2]
  fold change of IC50 against reference virus: 77
[3]
  fold change of IC50 against reference virus: 31
[4]
  fold change of IC50 against reference virus: 110
[5]
  fold change of IC50 against reference virus: 300
[6]
  fold change of IC50 against reference virus: 60

## HIV-1 isolate 935 (protease changes: T12P K14R G16E L33I P39S R57K D60E L63P I93L, study 15)
[1]
  fold change of IC50 against reference virus: 0.7
[2]
  fold change of IC50 against reference virus: 0.3
[3]
  fold change of IC50 against reference virus: 0.6
[4]
  fold change of IC50 against reference virus: 0.3
[5]
  fold change of IC50 against reference virus: 0.5
[6]
  fold change of IC50 against reference virus: 0.5

## HIV-1 isolate 717 (protease changes: I62V L63H, study 64)
[1]
  fold change of IC50 against reference virus: 0.9
[2]
  fold change of IC50 against reference virus: 0.7
[3]
  fold change of IC50 against reference virus: 0.9
[4]
  fold change of IC50 against reference virus: 0.8
[5]
  fold change of IC50 against reference virus: 0.8
[6]
  fold change of IC50 against reference virus: 1

## HIV-1 isolate 35 (protease changes: L10I T12P L19V K45R I62V L63P C67L H69Q G73T V82A L90M, study 15)
[1]
  fold change of IC50 against reference virus: 6.4
[2]
  fold change of IC50 against reference virus: 1.7
[3]
  fold change of IC50 against reference virus: 9
[4]
  fold change of IC50 against reference virus: 2.6
[5]
  fold change of IC50 against reference virus: 11
[6]
  fold change of IC50 against reference virus: 5.5

## HIV-1 isolate 1635 (protease changes: L33V I62V L63P L89I, study 15)
[1]
  fold change of IC50 against reference virus: 1.1
[2]
  fold change of IC50 against reference virus: 0.8
[3]
  fold change of IC50 against reference virus: 1.4
[4]
  fold change of IC50 against reference virus: 1
[5]
  fold change of IC50 against reference virus: 1.6
[6]
  fold change of IC50 against reference virus: 1.3

## HIV-1 isolate 1 (protease changes: L10I I13V K14R N37D L63P A71T L90M, study 15)
[1]
  fold change of IC50 against reference virus: 3.4
[2]
  fold change of IC50 against reference virus: 3.7
[3]
  fold change of IC50 against reference virus: 1.8
[4]
  fold change of IC50 against reference virus: 1
[5]
  fold change of IC50 against reference virus: 3.4
[6]
  fold change of IC50 against reference virus: 1.4

## HIV-1 isolate 1269 (protease changes: I54M Q58E L63P, study 78)
[1]
  fold change of IC50 against reference virus: 4.7
[2]
  fold change of IC50 against reference virus: 1.9
[3]
  fold change of IC50 against reference virus: 2
[4]
  fold change of IC50 against reference virus: 2.9
[5]
  fold change of IC50 against reference virus: 4.4
[6]
  fold change of IC50 against reference virus: 3.4

## HIV-1 isolate 343 (protease changes: L10I L19I K20R E35D M36I I54V D60E I62V L63P A71T V82A L90M, study 15)
[1]
  fold change of IC50 against reference virus: 43
[2]
  fold change of IC50 against reference virus: 37
[3]
  fold change of IC50 against reference virus: 30
[4]
  fold change of IC50 against reference virus: 37
[5]
  fold change of IC50 against reference virus: 177
[6]
  fold change of IC50 against reference virus: 16

## HIV-1 isolate 1326 (protease changes: I62V H69Q A71T V77I, study 15)
[1]
  fold change of IC50 against reference virus: 1.4
[2]
  fold change of IC50 against reference virus: 0.8
[3]
  fold change of IC50 against reference virus: 1
[4]
  fold change of IC50 against reference virus: 1
[5]
  fold change of IC50 against reference virus: 0.8
[6]
  fold change of IC50 against reference virus: 1.2

## HIV-1 isolate 73 (protease changes: L10I T12P K14R L24I I54V L63P A71I V77I V82A I84V, study 78)
[1]
  fold change of IC50 against reference virus: 9.9
[2]
  fold change of IC50 against reference virus: 24
[3]
  fold change of IC50 against reference virus: 6.6
[4]
  fold change of IC50 against reference virus: 13
[5]
  fold change of IC50 against reference virus: 63
[6]
  fold change of IC50 against reference virus: 7.1

## HIV-1 isolate 1188 (protease changes: L10I K20I M36I I54V L63P A71V V82T L90M, study 138)
[1]
  fold change of IC50 against reference virus: 43.6
[2]
  fold change of IC50 against reference virus: 21.4
[3]
  fold change of IC50 against reference virus: 31.4
[4]
  fold change of IC50 against reference virus: 13.2
[5]
  fold change of IC50 against reference virus: 73.5
[6]
  fold change of IC50 against reference virus: 27.4

## HIV-1 isolate 888 (protease changes: L10I I62V L63P I72L V77I L90M I93L, study 83)
[1]
  fold change of IC50 against reference virus: 5.2
[2]
  fold change of IC50 against reference virus: 3.8
[3]
  fold change of IC50 against reference virus: 3.3
[4]
  fold change of IC50 against reference virus: 1.1
[5]
  fold change of IC50 against reference virus: 3.3
[6]
  fold change of IC50 against reference virus: 1.8

## HIV-1 isolate 1442 (protease changes: L10V I13V I15V L19I K20T V32I M36I M46I I47V Q58E L63P I64V I84V Q92K, study 64)
[1]
  fold change of IC50 against reference virus: 33
[2]
  fold change of IC50 against reference virus: 6.5
[3]
  fold change of IC50 against reference virus: 16
[4]
  fold change of IC50 against reference virus: 76
[5]
  fold change of IC50 against reference virus: 38
[6]
  fold change of IC50 against reference virus: 47

## HIV-1 isolate 1519 (protease changes: L10V M36I F53L L63P V82A, study 138)
[1]
  fold change of IC50 against reference virus: 2.5
[2]
  fold change of IC50 against reference virus: 1.2
[3]
  fold change of IC50 against reference virus: 2.5
[4]
  fold change of IC50 against reference virus: 4.3
[5]
  fold change of IC50 against reference virus: 14.5
[6]
  fold change of IC50 against reference virus: 1.9

## HIV-1 isolate 1071 (protease changes: L10F I15V D30N L33F E35D M36L N37E K43T D60E I62V L63P I84V N88D L90M I93L, study 64)
[1]
  fold change of IC50 against reference virus: ≥ 600
[2]
  fold change of IC50 against reference virus: 400
[3]
  fold change of IC50 against reference virus: 27
[4]
  fold change of IC50 against reference virus: 30
[5]
  fold change of IC50 against reference virus: 78
[6]
  fold change of IC50 against reference virus: 128

## HIV-1 isolate 1360 (protease changes: L10I L19I M46I I62V L63P I72M G73S V77I V82F L90M I93L, study 83)
[1]
  fold change of IC50 against reference virus: 43
[2]
  fold change of IC50 against reference virus: 2.2
[3]
  fold change of IC50 against reference virus: 41
[4]
  fold change of IC50 against reference virus: 40
[5]
  fold change of IC50 against reference virus: 69
[6]
  fold change of IC50 against reference virus: 9.5

## HIV-1 isolate 1491 (protease changes: D60E Q61E L63P I64M I72V, study 15)
[1]
  fold change of IC50 against reference virus: 0.8
[2]
  fold change of IC50 against reference virus: 0.7
[3]
  fold change of IC50 against reference virus: 0.7
[4]
  fold change of IC50 against reference virus: 0.6
[5]
  fold change of IC50 against reference virus: 0.8
[6]
  fold change of IC50 against reference virus: 0.7

## HIV-1 isolate 1348 (protease changes: L10I I13V E35D M36I R41K I50V L63P A71V N88S, study 117)
[1]
  fold change of IC50 against reference virus: 14.8
[2]
  fold change of IC50 against reference virus: 5.5
[3]
  fold change of IC50 against reference virus: 3.8
[4]
  fold change of IC50 against reference virus: 5.6
[5]
  fold change of IC50 against reference virus: 9.2
[6]
  fold change of IC50 against reference virus: 4.9

## HIV-1 isolate 913 (protease changes: D30N M46I V77I, study 138)
[1]
  fold change of IC50 against reference virus: 23.3
[2]
  fold change of IC50 against reference virus: 0.3
[3]
  fold change of IC50 against reference virus: 1.1
[4]
  fold change of IC50 against reference virus: 0.6
[5]
  fold change of IC50 against reference virus: 0.6
[6]
  fold change of IC50 against reference virus: 1.3
